PubChem BioAssay AID1259414, Drosophila RNAi Screening Center | 2018

Screen: 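Genome-wide screen for host control of endosymbiont load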 (primary screen)
System: Drosophila JW18 cells infected with Wolbachia
Reagents: long dsRNA against Drosophila genes, 0.25 µg dsRNA per well of a 384-well plate
Timing: 5 days
Challenge: cells persistently infected with Wolbachia before knock-down; no added drug
Measured: 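Imaged fluorescence in situ signal for Wolbachia 23S rRNA per DAPI-counted host cell, given as a robust z-score within each plate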
Reading the numbers: Wolbachia per cell robust z: higher = more Wolbachia per host cell than the plate typical
Active means: 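Hit when robust z is 1.5 or more, or -1.5 or less, in at least two of three replicates; excludes dsRNAs with several or no targets, genes not expressed in JW18 and well A1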
In all, the deposit lists about 24,000 reagents; below is a random part of those with a known target gene and a result. Of all reagents, about 1,210 (5%) got an active call. 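Inactive calls also include excluded dsRNAs with several or no targets, genes unexpressed in JW18, and well A1, regardless of score.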 Names joined by + are all predicted targets of the reagent.

no.	predicted target	dsRNA	Wolbachia per cell robust z, rep 1	Wolbachia per cell robust z, rep 2	Wolbachia per cell robust z, rep 3	outcome
1	Gr66a	DRSC10783	0.128	0.105	-0.611	inactive
2	bcn92	DRSC18741	-2.08	0.561	0.372	inactive
3	bcn92	DRSC28946	-1.09	-4.87	-0.617	inactive
4	CG42374 + Mettl5	DRSC11085	0.676	-0.167	0.551	inactive
5	ninaA	DRSC00830	-6.49	-9.83	0.719	inactive
6	Rexo5	DRSC10981	-2.08	0.787	-0.733	inactive
7	Cnot4	DRSC02830	-0.404	0.291	0.268	inactive
8	Cnot4	DRSC02831	0.139	0.245	0.518	inactive
9	Su(H)	DRSC03445	0.607	-3.43	-0.415	inactive
10	Su(H)	DRSC39115	-0.39	-0.319	0.0452	inactive
11	CG16700	DRSC19755	-3.07	-0.0982	0.244	inactive
12	Ccdc58	DRSC10218	-0.301	-1.34	-0.875	inactive
13	Ptp36E	DRSC03021	-0.519	-0.0542	1.57	inactive
14	CG34210	DRSC04579	-0.178	-0.863	-0.905	inactive
15	CG34210	DRSC41479	-0.731	0.261	0.878	inactive
16	CG11409	DRSC18579	-0.878	1.57	0.268	inactive
17	CG11409	DRSC28360	-1.25	-1.77	-1.25	inactive
18	CG13055	DRSC09936	1.23	1.81	0.798	inactive
19	CG13055	DRSC25640	0.154	0.54	0.181	inactive
20	lectin-46Ca	DRSC06612	-0.728	-4.08	-1.59	inactive
21	lectin-46Ca	DRSC25469	-0.0596	1.14	1.02	inactive
22	CG4629	DRSC00659	-1.88	-1.57	-0.666	inactive
23	CG4629	DRSC27952	0.284	1.55	0.756	inactive
24	deltaTry + gammaTry + CG30031	DRSC07622	-0.744	-3.45	-3.04	inactive
25	meng	DRSC02134	-3.59	0.131	0.109	inactive
26	meng	DRSC28743	-0.0889	-1.64	-0.598	inactive
27	FipoQ	DRSC15413	0.875	1.01	1.17	inactive
28	FipoQ	DRSC24515	0.0723	-0.786	-0.878	inactive
29	CG30222	DRSC04125	0.151	0.763	-0.73	inactive
30	CG30222	DRSC04262	-0.656	-0.224	-0.651	inactive
31	CG15605	DRSC06558	0.598	1.02	0.899	inactive
32	CG4619	DRSC02764	-0.641	-4.93	0.213	inactive
33	VhaSFD	DRSC03471	1.1	0.87	1.29	inactive
34	CG31957	DRSC00207	0.72	0.419	0.758	inactive
35	Ddx56	DRSC20567	-2	-1.69	-4.37	active
36	Ddx56	DRSC26165	0.652	0.855	0.336	inactive
37	Obp99c	DRSC16262	0.134	-1.71	0.677	inactive
38	CG30195	DRSC04155	-0.596	-6.39	0.0708	inactive
39	Dop1R2	DRSC13958	-0.134	0.186	-0.325	inactive
40	Dop1R2	DRSC15379	-1.99	0.635	0.317	inactive
41	Dop1R2	DRSC28272	0.798	1.05	1.09	inactive
42	CG16820	DRSC02522	-0.988	-1.24	-0.453	inactive
43	fj	DRSC07619	0.262	0.179	1.17	inactive
44	fj	DRSC27535	-0.163	-0.783	-6.15	inactive
45	fj	DRSC41550	0.695	0.744	0.135	inactive

Reprinted from the listing, 9 entries:
no.	predicted target	dsRNA	Wolbachia per cell robust z, rep 1	Wolbachia per cell robust z, rep 2	Wolbachia per cell robust z, rep 3	outcome
1	Gr66a	DRSC10783	0.128	0.105	-0.611	inactive
2	bcn92	DRSC18741	-2.08	0.561	0.372	inactive
3	bcn92	DRSC28946	-1.09	-4.87	-0.617	inactive
4	CG42374 + Mettl5	DRSC11085	0.676	-0.167	0.551	inactive
5	ninaA	DRSC00830	-6.49	-9.83	0.719	inactive
6	Rexo5	DRSC10981	-2.08	0.787	-0.733	inactive
7	Cnot4	DRSC02830	-0.404	0.291	0.268	inactive
8	Cnot4	DRSC02831	0.139	0.245	0.518	inactive
9	Su(H)	DRSC03445	0.607	-3.43	-0.415	inactive

The listing continues.
no.	predicted target	dsRNA	Wolbachia per cell robust z, rep 1	Wolbachia per cell robust z, rep 2	Wolbachia per cell robust z, rep 3	outcome
46	hep	DRSC19839	0.0144	0.328	1.31	inactive
47	hep	DRSC20337	-0.878	0.271	0.629	inactive
48	hep	DRSC26331	0.435	-0.881	-0.0984	inactive
49	TwdlX	DRSC19151	-0.0553	-1.3	0.0886	inactive
50	TwdlX	DRSC29528	0.232	0.612	0.453	inactive
51	CG5402	DRSC15792	-1.45	-1.27	0.401	inactive
52	CG5402	DRSC26273	1.01	-0.639	-0.648	inactive
53	spir	DRSC03619	0.586	0.879	-4.82	inactive
54	spir	DRSC24744	0.466	-1.63	1.18	inactive
55	spir	DRSC40746	1.29	0.241	0.514	inactive
56	SCAP	DRSC04869	-2.69	-0.84	-0.123	inactive
57	SCAP	DRSC04907	-2.96	-0.979	-0.731	inactive
58	eIF2Bbeta	DRSC18465	0.156	-6.25	-0.166	inactive
59	eIF2Bbeta	DRSC28495	-0.0251	0.663	0.758	inactive
60	ppk22	DRSC22093	-1	-0.14	-0.0246	inactive
61	CG10165	DRSC02017	-0.0989	-0.597	0.0744	inactive
62	Opbp	DRSC04966	-0.199	0.869	1.31	inactive
63	Opbp	DRSC28850	0.985	-0.689	-0.607	inactive
64	yellow-c + CIAPIN1	DRSC01898	0.588	0.934	-0.386	inactive
65	CG17959	DRSC18142	-3.37	-0.369	0.0611	inactive
66	CG17959	DRSC28767	0.656	0.000813	0.286	inactive
67	CG42240	DRSC18097	0.709	0.28	2.32	inactive
68	CG42240	DRSC30017	-0.381	-0.139	0.238	inactive
